# Mutational tolerance of the Zika virus NS2B-NS3 protease

Chain scanned (Zika virus MR766; NS2B from position 2 to 131, then the start of NS3):
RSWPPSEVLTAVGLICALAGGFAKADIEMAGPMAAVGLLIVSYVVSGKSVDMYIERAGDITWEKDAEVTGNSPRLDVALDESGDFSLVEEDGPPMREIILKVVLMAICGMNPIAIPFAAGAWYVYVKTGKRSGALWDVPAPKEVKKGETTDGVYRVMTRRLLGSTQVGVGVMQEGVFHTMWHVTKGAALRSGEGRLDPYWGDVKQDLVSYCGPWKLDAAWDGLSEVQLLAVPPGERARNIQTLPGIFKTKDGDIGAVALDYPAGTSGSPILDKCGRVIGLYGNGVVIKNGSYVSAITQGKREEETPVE

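Pools of virus carrying all single amino acid changes were selected for growth in Huh-7.5 cells. The effect is the change in frequency of a mutant, normalised to wild type, as a mean of three replicate libraries (two for positions 207-308). The study looked for pockets that tolerate few changes, as a guide for inhibitor design.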

The number is log2 of the effect relative to wild type; negative values mean reduced growth, higher values better tolerance.
Substitutions are written as wild-type residue, site number, new residue.
Position 1 still belongs to NS2A. In the paper, -1 or higher counts as tolerated.

change	log2 growth effect
I113*	-6.53
I113A	-2.19
I113C	-1.52
I113D	-4.69
I113E	-5.40
I113F	-1.43
I113G	-3.64
I113H	-5.08
I113K	-5.55
I113L	-1.39
I113M	-2.32
I113N	-5.57
I113P	-5.96
I113Q	-5.38
I113R	-6.45
I113S	-4.67
I113T	-6.17
I113V	-0.58
I113W	-3.20
I113Y	-4.75
A114*	-6.78
A114C	-0.61
A114D	-5.18
A114E	-5.61
A114F	-0.33
A114G	-1.55
A114H	-5.61
A114I	-2.41
A114K	-5.74
A114L	-1.47
A114M	-0.95
A114N	-4.66
A114P	-7.52
A114Q	-6.19
A114R	-8.01
A114S	-1.65
A114T	-1.89
A114V	-1.60
A114W	-1.39
A114Y	-2.84
I115*	-6.56
I115A	-6.05
I115C	-2.57
I115D	-5.15
I115E	-5.00
I115F	-2.76
I115G	-6.15
I115H	-6.16
I115K	-5.54
I115L	-1.18
I115M	-2.22
I115N	-6.07
I115P	-6.65
I115Q	-5.55
I115R	-7.18
I115S	-6.52
I115T	-2.07
I115V	-0.40
I115W	-4.88
I115Y	-5.86
P116*	-6.88
P116A	-5.99
P116C	-4.93
P116D	-3.97
P116E	-5.56
P116F	-4.80
P116G	-6.33
P116H	-6.07
P116I	-5.17
P116K	-6.59
P116L	-6.78
P116M	-5.88
P116N	-5.47
P116Q	-6.57
P116R	-7.61
P116S	-7.10
P116T	-7.39
P116V	-6.37
P116W	-6.10
P116Y	-5.10
F117*	-7.04
F117A	-1.59
F117C	-1.74
F117D	-4.95
F117E	-5.09
F117G	-5.78
F117H	-5.59
F117I	-1.17
F117K	-5.99
F117L	-1.07
F117M	-1.76
F117N	-6.08
F117P	-5.69
F117Q	-5.46
F117R	-7.03
F117S	-7.18
F117T	-6.82
F117V	-1.20
F117W	-3.56
F117Y	-5.99

Excerpt, the final 5 entries:

| change | log2 growth effect |
|---|---|
| F117S | -7.18 |
| F117T | -6.82 |
| F117V | -1.20 |
| F117W | -3.56 |
| F117Y | -5.99 |

The region was split into three libraries (1-103, 104-206, 207-308).
Stop codons (*) centre on -7 and mark the level of dead virus.
Values above 0 are not proof of better growth: six high scorers were tested one by one, five grew less well than wild type and one about as well.

Data from the supplement of Ni et al. 2025, doi:10.1038/s41467-025-63602-z.